A mixed list of measured activities; the numbers were collected in NIAID ChemDB.

Shared fields: host cell toxicity; cells: PRK; measure: CC50

Lines come from different laboratories, so protocols vary. CCn is the concentration with n% toxicity to the cells.

structure	result
O=c1[nH]c(=O)n([C@@H]2OC3COP(=O)(O)OC3[C@H]2O)cc1Cl	>400 µg/mL
Cc1nc(Cc2ccccc2)c2[nH]c(=S)[nH]c(=O)n12	200 µg/mL
CON1CCc2c([nH]c3ccccc23)[C@@H]1[C@@H](N)CSC	200 µg/mL
Cc1nc(CC(O)CO)c2nc[nH]c(=O)n12	>400 µg/mL
Nc1ncnc2c1ncn2[C@@H]1O[C@H](CO)[C@@H](F)[C@H]1O	>40 µg/mL
Nc1ncnc2c1ncn2[C@@H]1C=C(CO)[C@@H](O)[C@@H]1O	>5 µg/mL
O=c1[nH]c(=O)n([C@H]2C[C@H](O)[C@@H](CO)O2)cc1/C=C/Br	200 µg/mL
Nc1ncnc2c1ncn2C[C@H](O)CO	>5 µg/mL
Nc1ncnc2c1ncn2[C@H]1C[C@@H](CO)[C@H](O)[C@@H]1O	>400 µg/mL
Nc1ncnc2c1ncn2[C@@H]1C=C(CO)[C@@H](O)C1	>50 µg/mL
C=CCc1nc(C)n2c(=O)[nH]cnc12	100 µg/mL
NC1CSCON2CCc3c([nH]c4ccccc34)[C@H]12	≥10 µg/mL
Nc1nc2c(ncn2[C@@H]2O[C@H](CO)[C@@H](F)[C@H]2O)c(=O)[nH]1	200 µg/mL
Nc1nccc2c1ncn2[C@@H]1C[C@H](CO)[C@@H](O)[C@H]1O	>500 µg/mL
N=C(N)CCNC(=O)c1c[nH]c(NC(=O)c2c[nH]c(NC(=O)/C=C/C(=O)Nc3c[nH]c(C(=O)Nc4c[nH]c(C(=O)NCCC(=N)N)c4)c3)c2)c1	≥40 µg/mL
O=c1[nH]c(=O)n([C@H]2C[C@H](O)[C@@H](CO)O2)cc1I	>400 µg/mL
N=C(N)CCNC(=O)c1c[nH]c(NC(=O)c2c[nH]c(NC(=O)CCCCCCC(=O)Nc3c[nH]c(C(=O)Nc4c[nH]c(C(=O)NCCC(=N)N)c4)c3)c2)c1	≥10 µg/mL
O=c1[nH]c(=O)n([C@@H]2OC3COP(=O)(O)OC3[C@H]2O)cc1Br	400 µg/mL
O=c1[nH]c(=O)n([C@H]2C[C@H](O)[C@@H](CO)O2)cc1/C=C/Br	>400 µg/mL

2 of the rows above, restated:

structure,result
Nc1ncnc2c1ncn2[C@H]1C[C@@H](CO)[C@H](O)[C@@H]1O,>400 µg/mL
Cc1nc(Cc2ccccc2)c2[nH]c(=S)[nH]c(=O)n12,200 µg/mL